Measured values from several laboratories, pooled; numbers as filed in NIAID ChemDB.

Shared fields: whole-cell or culture tests; organism: HIV-2; strain or isolate: ROD; read by: MTT; read-out: EC50

Blank or dashed fields: not listed here. ECn is the concentration giving n% inhibition of infection, replication or growth. Lines come from different laboratories, so protocols vary.

smiles,cells,value
N#Cc1ccccc1Cn1cc(CSc2nc(Cc3cccc4ccccc34)c(I)c(=O)[nH]2)nn1,,>75.93 µM
C#Cc1ccc(Nc2nccc(Oc3c(C)cc(-c4cn(Cc5cccc([N+](=O)[O-])c5)nn4)cc3C)n2)cc1,MT-4,≥101 µM
COc1cccc(C(=O)N2CCC(NC(=O)c3cc(O)c(O)c(O)c3)CC2)c1,MT-4,>76.6 µM
Cc1ccccc1CN1CCC(N=C2C=C(Cc3cccc4ccccc34)NS(=O)(=O)N2)CC1,MT-4,>107 µM
Cc1ccccc1Cn1cc(CSc2nc(Cc3cccc4ccccc34)c(C)c(=O)[nH]2)nn1,,>24.01 µM
Cn1ncc2c1S(=O)(=O)N(CCc1ccccc1)C(=O)N2CCc1ccc(C(C)(C)C)cc1,MT-4,18.7 µM
CC(c1cc(=O)[nH]c(SCC(=O)c2ccccc2)n1)C1CCCCC1,MT-4,266 µM
COc1ccc(Cn2cc(CSc3nc(Cc4c(Cl)cccc4Cl)c(C)c(=O)[nH]3)nn2)cc1,,>28.98 µM
COP(=O)(C[C@H](NP(=O)(O)OC[C@@H]1C=C[C@H](n2cc(C)c(=O)[nH]c2=O)O1)C(=O)O)OC,MT-4,1.18 µM
CS(=O)(=O)N1CCC(NC(=O)c2cc(O)c(O)c(O)c2)CC1,MT-4,>42.4 µM
Cn1ncc2c1S(=O)(=O)N(CCc1ccccc1Br)C(=O)N2CCc1ccccc1Br,MT-4,>231.5 µM
Cc1cc(C)c(Nc2ccc([N+](=O)[O-])c(NC3CCN(Cc4ccncc4)CC3)n2)c(C)c1,MT-4,>31 µM
Cc1c(CCC2CCCCC2)nc(SCC(=O)c2ccc(F)cc2)[nH]c1=O,MT-4,7.3 µM
C#Cc1ccc(Nc2nccc(Oc3c(C)cc(-c4cn(Cc5ccc(O)cc5)nn4)cc3C)n2)cc1,MT-4,>2.1 µM
CN(C)C(=O)N1CCC(NC(=O)c2cc(O)c(O)c(O)c2)CC1,MT-4,>34.3 µM
O=S1(=O)N=C(Nc2ccc(F)cc2)C=C(Cc2ccccc2)N1,MT-4,>255 µM
O=C(NC1CCNCC1)c1cc(O)c(O)c(O)c1,MT-4,>42.1 µM
CS(=O)(=O)c1ccc(CN2CCC(N=C3C=C(Cc4cccc5ccccc45)NS(=O)(=O)N3)CC2)cc1,MT-4,>232 µM
O=S1(=O)N=C(Nc2cccc(Cl)c2)C=C(Cc2ccccc2)N1,MT-4,>189 µM
COc1ccc(C(=O)N2CCC(NC(=O)c3cc(O)c(O)c(O)c3)CC2)cc1,MT-4,>85.7 µM
COc1ccccc1NC1=NS(=O)(=O)NC(Cc2cccc3ccccc23)=C1,MT-4,>161 µM
C#Cc1ccc(Nc2nccc(Oc3c(C)cc(-c4cn(-c5ccc(C(=O)O)cc5)nn4)cc3C)n2)cc1,MT-4,>33.17 µM
N#Cc1ccc(Nc2nc(Oc3c(Br)cc(Br)cc3Br)ncc2N)cc1,MT-4,>37.77 µM
Cn1ncc2c1S(=O)(=O)N(CCc1ccc(Br)cc1)C(=O)N2CCc1ccc(Br)cc1,MT-4,>151.2 µM
CN(C)S(=O)(=O)N1CCC(NC(=O)c2cc(O)c(O)c(O)c2)CC1,MT-4,>34.8 µM
Cc1cc(C)c(Oc2ccc([N+](=O)[O-])c(NC3CCN(Cc4ccncc4)CC3)n2)c(C)c1,MT-4,>279 µM
Cc1cn([C@H]2C[C@H](N=[N+]=[N-])[C@@H](CO)O2)c(=O)[nH]c1=O,MT-4,0.0067 µM
Cc1cn([C@H]2C=C[C@@H](CO)O2)c(=O)[nH]c1=O,CEM,3.02 µM
C#Cc1ccc(Nc2nccc(Oc3c(C)cc(-c4cn(-c5cccc(C(=O)OC)c5)nn4)cc3C)n2)cc1,MT-4,137 µM
CC(=O)c1ccc(Cn2cc(CSc3nc(Cc4c(Cl)cccc4Cl)c(C)c(=O)[nH]3)nn2)cc1,,>32.58 µM
C#Cc1ccc(Nc2nccc(Oc3c(C)cc(-c4cn(Cc5ccccc5)nn4)cc3C)n2)cc1,MT-4,>8.55 µM
N#Cc1cccc(CN2CCC(N=C3C=C(Cc4cccc5ccccc45)NS(=O)(=O)N3)CC2)c1,MT-4,>113 µM
C#Cc1ccc(Nc2nccc(Oc3c(C)cc(-c4cn(CC(=O)OC)nn4)cc3C)n2)cc1,MT-4,>10.35 µM
Cc1cc(NCCc2c[nH]c3ccccc23)c(C(=O)C(Cl)Cl)c(=O)o1,CEM,≥2 µM
Cc1cc(C#N)cc(C)c1Oc1ccc(N)c(NC2CCN(Cc3ccc(C(N)=O)cc3)CC2)n1,MT-4,>27 µM
Nc1ccc(C(=O)N2CCC(NC(=O)c3cc(O)c(O)c(O)c3)CC2)cc1,MT-4,>35.6 µM
O=S1(=O)NC(Cc2ccc3ccccc3c2)=CC(=NCc2ccccc2)N1,MT-4,>161 µM
C#Cc1ccc(Nc2nccc(Oc3c(C)cc(-c4cn(Cc5ccc(S(N)(=O)=O)cc5)nn4)cc3C)n2)cc1,MT-4,>81.64 µM
CC(=O)Nc1cnc(Oc2c(C)cc(Br)cc2C)nc1Nc1ccc(C#N)cc1,MT-4,>147.6 µM
Cc1cc(SCc2cccc3ccccc23)cc(=O)o1,CEM,>10 µM
CCc1c(C(C)CC2CCCCC2)nc(SCC(=O)c2ccccc2)[nH]c1=O,MT-4,32 µM
Cc1cc(C=O)cc(C)c1Oc1ncc(NC(=O)C(F)(F)F)c(Nc2ccc(C#N)cc2)n1,MT-4,>216 µM
Cc1cn([C@H]2C=C[C@@H](COP(=O)(O)N(CC(=O)O)CC(=O)O)O2)c(=O)[nH]c1=O,CEM/TK-,155 µM
Cc1c(C(C)CC2CCCCC2)nc(SCC(=O)c2ccc(O)cc2)[nH]c1=O,MT-4,24 µM
NS(=O)(=O)c1ccc(NC2=NS(=O)(=O)NC(Cc3ccc4ccccc4c3)=C2)cc1,MT-4,>139 µM
COc1ccc(Cn2cc(CSc3nc(Cc4c(Cl)cccc4Cl)c(I)c(=O)[nH]3)nn2)cc1,,>75.91 µM
Cc1cc(C)c(Oc2ccc(N)c(NC3CCN(Cc4ccc(C(N)=O)cc4)CC3)n2)c(C)c1,MT-4,>26 µM
Cc1cc(Br)cc(C)c1Oc1ncc(N)c(Nc2ccc(C#N)cc2)n1,MT-4,>31.63 µM
O=S1(=O)NC(Cc2ccc(Cl)cc2Cl)=CC(=NC2CCN(Cc3ccc(Br)cc3)CC2)N1,MT-4,>97.9 µM
O=S1(=O)N=C(Nc2ccc(F)cc2)C=C(Cc2cccc3ccccc23)N1,MT-4,>158 µM
Cc1cc(NCc2ccccc2)c(C(=O)C(Cl)Cl)c(=O)o1,CEM,>2 µM
Cc1cc(C#N)cc(C)c1Oc1ccc(N)c(NC2CCN(Cc3ccncc3)CC2)n1,MT-4,>31 µM
N#Cc1ccc(Nc2nc(Oc3c(Cl)cccc3Cl)ncc2N)cc1,MT-4,>33.04 µM
O=S1(=O)NC(Cc2ccc(Cl)cc2Cl)=CC(=NC2CCN(Cc3ccccc3)CC2)N1,MT-4,>110.8 µM
Cn1ncc2c1S(=O)(=O)N(CCc1ccccc1)C(=O)N2CCc1cccc(Cl)c1,MT-4,44.7 µM
O=S1(=O)N=C(Nc2ccc(F)c(F)c2F)C=C(Cc2ccc3ccccc3c2)N1,MT-4,>143 µM
Cn1ncc2c1S(=O)(=O)N(CCc1ccccc1)C(=O)N2CCc1ccc(C#N)cc1,MT-4,>23.8 µM
Cc1c(CCC2CCCCC2)nc(SCC(=O)c2ccccc2)[nH]c1=O,MT-4,124 µM

Again, the opening 8 rows:

| smiles | cells | value |
|---|---|---|
| N#Cc1ccccc1Cn1cc(CSc2nc(Cc3cccc4ccccc34)c(I)c(=O)[nH]2)nn1 |  | >75.93 µM |
| C#Cc1ccc(Nc2nccc(Oc3c(C)cc(-c4cn(Cc5cccc([N+](=O)[O-])c5)nn4)cc3C)n2)cc1 | MT-4 | ≥101 µM |
| COc1cccc(C(=O)N2CCC(NC(=O)c3cc(O)c(O)c(O)c3)CC2)c1 | MT-4 | >76.6 µM |
| Cc1ccccc1CN1CCC(N=C2C=C(Cc3cccc4ccccc34)NS(=O)(=O)N2)CC1 | MT-4 | >107 µM |
| Cc1ccccc1Cn1cc(CSc2nc(Cc3cccc4ccccc34)c(C)c(=O)[nH]2)nn1 |  | >24.01 µM |
| Cn1ncc2c1S(=O)(=O)N(CCc1ccccc1)C(=O)N2CCc1ccc(C(C)(C)C)cc1 | MT-4 | 18.7 µM |
| CC(c1cc(=O)[nH]c(SCC(=O)c2ccccc2)n1)C1CCCCC1 | MT-4 | 266 µM |
| COc1ccc(Cn2cc(CSc3nc(Cc4c(Cl)cccc4Cl)c(C)c(=O)[nH]3)nn2)cc1 |  | >28.98 µM |